Anti-infective test results gathered from many reports (values: NIAID ChemDB through PubChem).

Shared fields: toxicity to cultured cells; cell line: MT-4; read-out: CC50

CCn is the concentration with n% toxicity to the cells.

structure | method | value
O=c1[nH]c(-c2ccc3[nH]ncc3c2)nc2ccccc12 | MTT | 42.6 µM
CC(C)Nc1cccnc1N1CCN(C(=O)c2cc3cc(NS(C)(=O)=O)ccc3[nH]2)CC1 | MTT | >36 µM
COc1ccc(CN(CCN2CCCCC2)CC2CCCN(C3CCCC3)C2)cc1O | MTT | 96 µM
COc1ccc(CCN=C2C=C(Cc3ccc4ccccc4c3)NS(=O)(=O)N2)cc1 | MTT | 159 µM
CCCCOc1nc(Cc2ccccc2)cc(=O)[nH]1 |  | 290 µM
Cc1cc(C#N)cc(C)c1Oc1nc(N/N=C/C2CCN(Cc3ccc(C(N)=O)cc3)CC2)nc2ccsc12 | MTT | 4.65 µM
Cc1cc(C)c(Oc2ccc([N+](=O)[O-])c(NC3CCN(Cc4ccc(S(C)(=O)=O)cc4)CC3)n2)c(C)c1 | MTT | 24 µM
CC(C)[C@H](NC(=O)CNC(=O)OCc1ccccc1)C(=O)N[C@@H](Cc1ccccc1)C(=O)C(F)(F)CCc1ccccc1 |  | >100 µM
c1cc(CN2CCCNCCNCCCNCC2)ccc1CN1CCCNCCNCCCNCC1 | MTT / absorbance | >50 µM
Cc1cc(C#N)cc(C)c1Oc1ccc(N)c(NC2CCN(Cc3ccc(S(N)(=O)=O)cc3)CC2)n1 | MTT | 24 µM
Cc1nnc2n1-c1ccccc1-n1c(C)nnc1C2 | MTT | >200 µM
COc1nc(Cc2ccccc2)cc(=O)[nH]1 |  | >1000 µM
O=C(/C=C/c1ccc(O)c2c1[C@H](C(=O)O)[C@@H](c1ccc(O)c(O)c1)O2)O[C@H](Cc1ccc(O)c(O)c1)C(=O)O | MTT | 32.52 µg/mL
Cc1cc(/C=C/C#N)cc(C)c1Oc1nc(N/N=C/c2ccc(C#N)cc2)nc2ccsc12 | MTT | 96.6 µM
Cc1ccnc2c1NC(=O)c1cccnc1N2C1CC1 | MTT | >15 µM
Nc1ncnc2c1ncn2/C=C1/C[C@@H]1CO |  | >100 µM
O=S1(=O)N=C(Nc2ccccc2Cl)C=C(Cc2cccc3ccccc23)N1 | MTT | 154 µM
CC(=O)c1ccc(Nc2ncccc2C(=O)c2cc(C)cc(C)c2)cc1 | MTT | 34.77 µM
Nc1ccc(-c2nc3cc(Cl)ccc3c(=O)[nH]2)cc1 | MTT | >170 µM
c1ccc(-c2nnc3n2-c2ccccc2-n2c(-c4ccccc4)nnc2C3N2CCOCC2)cc1 | MTT | 32 µM
Cc1cc(C#N)cc(C)c1Oc1ccc(N)c(NC2CCN(Cc3ccc(S(C)(=O)=O)cc3)CC2)n1 | MTT | 28 µM
Nc1ccc(-c2nc3ccccc3c(=O)[nH]2)cc1 | MTT | 238.1 µM
NC(=O)c1ccc(NC2=NS(=O)(=O)NC(Cc3ccc4ccccc4c3)=C2)cc1 | MTT | >245 µM
Cc1cc(C#N)cc(C)c1Oc1ccc(N)c(NC2CCN(Cc3ccc(C(N)=O)cc3)CC2)n1 | MTT | 27 µM
O=S1(=O)NC(Cc2ccc3ccccc3c2)=CC(=NCc2ccccc2)N1 | MTT | 161 µM
COc1ncccc1C(=O)c1cc(C)cc(C)c1 | MTT | 7.33 µM
Cc1ccnc2c1NC(=O)c1cccnc1N2C1CC1 | MTT | >2 µM
CCOC(=O)c1oc2cc(O)cc(O)c2c(=O)c1Oc1ccccc1 |  | >100 µg/mL
Cc1cc(C#N)cc(C)c1Oc1nc(N/N=C/c2ccc(C#N)cc2)nc2ccsc12 | MTT | 183 µM
Cc1cc(C)c(Oc2ccc([N+](=O)[O-])c(NC3CCN(Cc4ccncc4)CC3)n2)c(C)c1 | MTT | >279 µM
Cc1ccc(CN=C2C=C(Cc3ccc4ccccc4c3)NS(=O)(=O)N2)cc1 | MTT | 144 µM
Nc1ncnc2c1ncn2/C=C1/C[C@H]1CO |  | >100 µM
Cc1cn([C@H]2C[C@H](N=[N+]=[N-])[C@@H](CO)O2)c(=O)[nH]c1=O | MTT | >0.64 µg/mL
CC1c2n[nH]c(=O)n2-c2ccccc2-n2c1n[nH]c2=O | MTT | >200 µM
O=S1(=O)N=C(Nc2ccc(Cl)cc2)C=C(Cc2ccccc2)N1 | MTT | 179 µM
O=c1cc(Cc2ccccc2)nc(OC2CCCCC2)[nH]1 |  | 157 µM
O=C(/C=C/c1ccc(O)c(O)c1/C=C/c1ccc(O)c(O)c1)O[C@H](Cc1ccc(O)c(O)c1)C(=O)O | MTT | 7.61 µg/mL
Cc1cn([C@H]2C=C[C@@H](CO)O2)c(=O)[nH]c1=O |  | 1.2 µM
Cc1cn([C@H]2C[C@H](N=[N+]=[N-])[C@@H](CO)O2)c(=O)[nH]c1=O | MTT | 29.4 µM
COc1c(O)c(Br)c2c(c1OC)-c1c(c(Br)c(O)c(OC)c1OC)C[C@H](C)[C@H](C)C2 |  | 21.1 µM
O=c1cc(Cc2ccccc2)[nH]c(=O)[nH]1 |  | >1000 µM
Cc1ccnc2c1NC(=O)c1cccnc1N2C1CC1 | MTT | >15.02 µM
CC(C)=CCc1c(O)cc2oc(-c3ccc(O)c(O)c3)c(O)c(=O)c2c1O |  | 22 µg/mL
c1ccc2c(c1)-n1c(nnc1-c1ccncc1)Cc1nnc(-c3ccncc3)n1-2 | MTT | >200 µM
CC(C)Nc1cccnc1N1CCN(C(=O)c2cc3cc(NS(C)(=O)=O)ccc3[nH]2)CC1 | MTT | >44 µM
Cc1cc(C)cc(C(=O)c2cccnc2Nc2ccncc2)c1 | MTT | 32.33 µM
CC(C)=CCc1cc(C(=O)/C=C/c2ccc(O)cc2)c(O)cc1O |  | 2 µg/mL
Cc1cc(C#N)cc(C)c1Oc1nc(N/N=C/C2CCN(Cc3ccccn3)CC2)nc2ccsc12 | MTT | 4.18 µM
c1cc(CN2CCCNCCNCCCNCC2)ccc1CN1CCCNCCNCCCNCC1 | MTT | >10 µM
Cc1cc(C)cc(S(=O)(=O)c2c(C(=O)NC(C)C(=O)NCc3ccncn3)[nH]c3ccc(Cl)cc23)c1 | MTT / absorbance | 48.83 µM
CCCCOc1nc(Cc2ccccc2)c(C)c(=O)[nH]1 |  | 146 µM
O=S1(=O)NC(Cc2ccc3ccccc3c2)=CC(=NC2CC2)N1 | MTT | 218 µM
NC(=O)C[C@H](NC(=O)OCc1ccccc1)C(=O)N[C@@H](Cc1ccccc1)C(=O)C(F)(F)CCc1ccccc1 |  | >100 µM
CNc1nc(Nc2c(C)cc(C)cc2C)nc(NC2CCN(Cc3ccc(C(N)=O)cc3)CC2)n1 | MTT | 27.39 µM
CCCOc1nc(Cc2ccccc2)c(C)c(=O)[nH]1 |  | 244 µM
c1ccc2c(c1)-n1cnnc1Cc1nncn1-2 | MTT | >200 µM
Cc1cn([C@H]2C[C@H](N=[N+]=[N-])[C@@H](CO)O2)c(=O)[nH]c1=O |  | 920 µM
Nc1ncnc2c1ncn2C=C1CC1CO |  | 79 µM
Cc1c(Cc2ccccc2)nc(OC2CCCC2)[nH]c1=O |  | >1000 µM
CC(C)=CCc1c(O)ccc(-c2coc3cc(O)cc(O)c3c2=O)c1O |  | 21 µg/mL
C=C1[C@H](CO)[C@@H](O)C[C@@H]1n1cnc2c(=O)[nH]c(N)nc21 | MTT | 28 µM
N#C/C=C1/c2cc(S)cc([N+](=O)[O-])c2-c2c1cc(S(=O)(=O)NCc1ccccc1)cc2[N+](=O)[O-] | MTT / absorbance | 92.78 µM
CC(C)[C@H](NC(=O)NCc1ccccn1)C(=O)N[C@@H](Cc1ccccc1)C(=O)C(F)(F)CCc1ccccc1 |  | >100 µM
COc1c(/C=C/C(=O)c2ccc(O)cc2)ccc(O)c1O |  | 16 µg/mL
NCCCCN(Cc1nc2ccccc2[nH]1)C1CCCc2cccnc21 | MTT | >10 µM

A second listing of 5 rows from above:

structure | method | value
CC(C)=CCc1c(O)cc2oc(-c3ccc(O)c(O)c3)c(O)c(=O)c2c1O |  | 22 µg/mL
O=c1[nH]c(-c2ccc3[nH]ncc3c2)nc2ccccc12 | MTT | 42.6 µM
Cc1cn([C@H]2C[C@H](N=[N+]=[N-])[C@@H](CO)O2)c(=O)[nH]c1=O | MTT | 29.4 µM
CNc1nc(Nc2c(C)cc(C)cc2C)nc(NC2CCN(Cc3ccc(C(N)=O)cc3)CC2)n1 | MTT | 27.39 µM
O=C(/C=C/c1ccc(O)c2c1[C@H](C(=O)O)[C@@H](c1ccc(O)c(O)c1)O2)O[C@H](Cc1ccc(O)c(O)c1)C(=O)O | MTT | 32.52 µg/mL

Blank or dashed fields: not listed here. Lines come from different laboratories, so protocols vary.